Data: patent US20140273039A1 (ALBERT LUDWIGS UNIVERSIT T FREIBURG, published 2014)

Biological target: HA-2SL (protein consisting of HaloTag, two sequences of SNAP25 […] and luciferase) (human; firefly)
Assay: cell-based or functional assay

B1: recombinant BoNT type A light chain (enzyme)
chain: not shown
B1 was tested, and the “EC50, luciferase release from HaloLink Magnetic Beads, 20 minutes incubation” value was about 1 nM.
